What all share (assay): ELISA on coated HA
(ELISA stands for enzyme-linked immunosorbent assay.)

For assay [1], the target named is H3N2 A/Wyoming/3/03 HA protein (influenza A virus H3N2 A/Wyoming/3/03).
In assay [2] the target is H3N2 A/New York/55/04 HA protein (influenza A virus H3N2 A/New York/55/04).
The target in assay [3] is H3N2 A/Brisbane/10/07 HA protein (influenza A virus H3N2 A/Brisbane/10/07).

B1: FI6 variant 2 (antibody, V domains shown)
VH: QVQLVQSGGGVVQPGRSLRLSCVASGFTFSTYAMHWVRQAPGRGLEWVAVISYDGNYKYYADSVKGRFSISRDNSNNTLHLEMNTLRTEDTALYYCAKDSQLRSLLYFEWLSQGYFDPWGQGTLVTVTS
VL: DIQMTQSPDSLAVSLGARATINCKSSQSVTFNYKNYLAWYQQKPGQPPKVLIYWASARESGVPDRFSGSGSGTDFTLTISSLQAEDVAVYYCQQHYRTPPTFGQGTKVEIK
As a reminder, the EC50 is the concentration needed to bring the measured effect to its halfway point. Low readings indicate a more potent agent, high ones a less potent agent. As for B1, the EC50 in assay [1] amounted to 0.019 µg/mL; in assay [2], 0.032 µg/mL; in assay [3] it was 0.041 µg/mL.

(Values after patent publication US20110274702A1 (INSTITUTE FOR RESEARCH IN BIOMEDICINE, published 2011).)
